# Measured values reported in paper PMC5298233, “Substrate-analogous inhibitors exert antimalarial action by targeting the Plasmodium lactate transporter PfFNT at nanomolar scale” (PLoS Pathogens, 2017).
# System: MMV007839 resistant 3D7 parasites
# Format: cell-based, Plasmodium falciparum
compound,measurement,value
COc1ccc2c(c1)OC(O)(C(F)(F)C(F)(F)F)CC2=O (stereo not shown) [MMV007839],"shift in IC50, resistant versus non-resistant parental parasites",250 fold
